Here are results for 1 substance from patent US20250263467A1.

For experiment [1], the target named is SARS-CoV-2 Spike protein on pseudotyped virus (SARS-CoV-2 (Wuhan-Hu-1)) (UniProt P0DTC2). Nature of the experiment: cell-based or functional assay.
The target is the same in experiment [2]. Description: cell-based or functional assay. This is another data set of the same source.

Read-outs that look alike come from different tables or passages of the source.

On to S309 rIgG1-LS (antibody), for which the IC50, neutralization of SARS-CoV-2pp on DBT-ACE2 cells in experiment [1] came out at 3.82 nM. In experiment [2], the IC50, neutralization of SARS-CoV-2pp on DBT-ACE2 cells was 3.9 nM and the maximum neutralization, VSV pseudotype, A549-ACE2-TMPRSS2 clone 5 cells is 65%.
